Measured values from several laboratories, pooled; numbers as filed in NIAID ChemDB.

All rows: tests in culture; species: Streptococcus pneumoniae; read-out: MIC

Neighbouring rows are from separate reports.

| compound | strain | result |
|---|---|---|
| CC[C@H]1OC(=O)[C@H](C)C(=O)[C@H](C)[C@@H](O[C@@H]2O[C@H](C)C[C@H](N(C)C)[C@H]2O)[C@@]2(C)C[C@@H](C)C(=NC(C)=O)[C@H](C)C(OC/C(=C\C#Cc3ccc(N)nc3)CO2)[C@]1(C)O | 49619 (erythromycin-susceptible) | <0.06 µg/mL |
| CC[C@H]1OC(=O)[C@H](C)C(=O)[C@H](C)[C@@H](O[C@@H]2O[C@H](C)C[C@H](N(C)C)[C@H]2O)[C@@]2(C)C[C@@H](C)C(=NC(C)=O)[C@H](C)[C@@H](OC/C(=N\OCc3ccc(-c4ncccn4)s3)CO2)[C@]1(C)O | 700906 (erythromycin A-resistant) | <0.06 µg/mL |
| CC[C@H]1OC(=O)[C@H](C)C(=O)[C@H](C)[C@@H](O[C@@H]2O[C@H](C)C[C@H](N(C)C)[C@H]2O)[C@@]2(C)C[C@@H](C)/C(=N\C(=O)OC)[C@H](C)C(OC/C(=C\C=C\c3ccccc3)CO2)[C@]1(C)O | 7701 (erythromycin-resistant-MEF) | 0.5 µg/mL |
| COc1c(N2CCNC(C)C2)ccc2c(=O)c(C(=O)O)cn(C3CC3)c12 | D-1687 | 64 µg/mL |
| CC[C@H]1OC(=O)[C@H](C)C(=O)[C@H](C)[C@@H](O[C@@H]2O[C@H](C)C[C@H](N(C)C)[C@H]2O)[C@@]2(C)C[C@@H](C)C(=NC(C)=O)[C@H](C)[C@@H](OC/C(=N\Oc3ccccc3)CO2)[C@]1(C)O | 7701 (erythromycin-resistant-MEF) | 0.25 µg/mL |
| CC(=O)NC[C@H]1CN(c2ccc3c(c2)OCc2nccn2-3)C(=O)O1 | 1707/4 | 0.125 µg/mL |
| CC[C@H]1OC(=O)[C@H](C)C(=O)[C@H](C)[C@@H](O[C@@H]2O[C@H](C)C[C@H](N(C)C)[C@H]2O)[C@@]2(C)C[C@@H](C)C(=NC(C)=O)[C@H](C)C(OC/C(=N\OCc3ccccc3)CO2)[C@]1(C)O | 7701 (erythromycin-resistant-MEF) | 0.25 µg/mL |
| CC[C@H]1OC(=O)[C@@](C)(F)C(=O)[C@H](C)[C@@H](O[C@@H]2O[C@H](C)C[C@H](N(C)C)[C@H]2O)[C@@]2(C)C[C@@H](C)C(=NC(C)=O)[C@H](C)[C@@H](OC/C(=N\OCc3ccc(C(N)=O)s3)CO2)[C@]1(C)O | 49619 (erythromycin A-susceptible) | <0.06 µg/mL |
| O=C(NNC(=O)Nc1cc(C(F)(F)F)cc(C(F)(F)F)c1)Nc1cc(C(F)(F)F)cc(C(F)(F)F)c1 | STP51 | 1.7 µM |
| COC(=O)N1CC=C(c2ccc(C3=NO[C@@H](CNC(=O)O)C3)cc2)CC1 | UC9912 | 0.5 µg/mL |
| NC1CCN(c2ccc3c(=O)c(C(=O)O)cn(C4CC4)c3c2Cl)C1 | R6-C11 | 0.5 µg/mL |
| CC(=O)NC[C@H]1CN(c2ccc(-c3ccnn3C)c(F)c2)C(=O)O1 | UC9912 | ≤0.5 µg/mL |
| O=C(CC(=O)Nc1cc(C(F)(F)F)cc(C(F)(F)F)c1)Nc1cccc(C2=NCCN2)c1 | STP51 (penicillin-resistant) | 53 µM |
| CC[C@H]1OC(=O)[C@H](C)C(=O)[C@H](C)[C@@H](O[C@@H]2O[C@H](C)C[C@H](N(C)C)[C@H]2O)[C@@]2(C)C[C@@H](C)C(=NC(C)=O)[C@H](C)[C@@H](OC/C(=N\OCC#Cc3ncccn3)CO2)[C@]1(C)O | 700906 (erythromycin-resistant-ERM) | 0.5 µg/mL |
| COc1ccc(-c2ccc(N3CC(CNC(C)=O)CC3=O)cc2)ccc1=O | UC9912 | >64 µg/mL |
| CC(=O)NC[C@H]1CN(c2ccc(-c3cccs3)c(F)c2)C(=O)O1 | UC9912 | ≤0.125 µg/mL |
| CC[C@H]1OC(=O)[C@H](C)C(=O)[C@H](C)[C@@H](O[C@@H]2O[C@H](C)C[C@H](N(C)C)[C@H]2O)[C@@]2(C)C[C@@H](C)C(=NC(C)=O)[C@H](C)C(OC/C(=C\C#Cc3cccnc3)CO2)[C@]1(C)O | 700906 (erythromycin-resistant-ERM) | 0.2 µg/mL |
| O=C(Nc1cccc(C2=NCCN2)c1)Nc1cccc(C2=NCCN2)c1 | STP6301 | 60 µM |
| CC[C@H]1OC(=O)[C@H](C)C(=O)[C@H](C)[C@@H](O[C@@H]2O[C@H](C)C[C@H](N(C)C)[C@H]2O)[C@@]2(C)C[C@@H](C)C(=NC(C)=O)[C@H](C)C(OC/C(=C\C=C\c3ccc([N+](=O)[O-])cc3)CO2)[C@]1(C)O | 7701 (erythromycin-resistant-MEF) | 0.5 µg/mL |
| O=C(NNc1ccccn1)Nc1cc(C(F)(F)F)cc(C(F)(F)F)c1 | STP6301 | 9.7 µM |
| CC[C@H]1OC(=O)[C@H](C)C(=O)[C@H](C)[C@@H](O[C@@H]2O[C@H](C)C[C@H](N(C)C)[C@H]2O)[C@@]2(C)C[C@@H](C)C(=NC(C)=O)[C@H](C)[C@@H](OC/C(=N\Oc3ccc(-c4cnccn4)s3)CO2)[C@]1(C)O | 700906 (erythromycin-resistant-ERM) | 0.125 µg/mL |
| O=C(O)NC[C@H]1CC(c2ccc(N3CCOCC3)c(F)c2)=NO1 | UC9912 | 1 µg/mL |
| CC(=O)NC[C@H]1CN(c2ccc(-c3cncs3)c(F)c2)C(=O)O1 | UC9912 | ≤0.125 µg/mL |
| CC[C@H]1OC(=O)[C@@](C)(F)C(=O)[C@H](C)[C@@H](O[C@@H]2O[C@H](C)C[C@H](N(C)C)[C@H]2O)[C@@]2(C)C[C@@H](C)C(=NC(C)=O)[C@H](C)[C@@H](OC/C(=N\OCc3ccc4cnn(C(N)=O)c4c3)CO2)[C@]1(C)O | 49619 (erythromycin A-susceptible) | <0.06 µg/mL |
| CC(=O)NC[C@H]1CN(c2ccc(-c3ccn[nH]3)c(F)c2)C(=O)O1 | UC9912 | ≤0.5 µg/mL |
| N#Cc1cnn(-c2ccc(C3=NO[C@@H](CNC(=O)O)C3)cc2F)c1 | UC9912 | 0.5 µg/mL |
| C[C@H]1NCc2cc(-c3ccc4c(=O)c(C(=O)O)cn(C5CC5)c4c3OC(F)F)ccc21 | R6-G8 | 0.12 µg/mL |
| O=C(Nc1ccc(C(F)(F)F)cc1)Nc1ccc(C(F)(F)F)cc1 | STP6301 | 38 µM |
| CC(=O)NC[C@H]1CN(c2ccc(-c3cc(C#N)cs3)c(F)c2)C(=O)O1 | UC9912 | ≤0.5 µg/mL |
| CC[C@H]1OC(=O)[C@H](C)C(=O)[C@H](C)[C@@H](O[C@@H]2O[C@H](C)C[C@H](N(C)C)[C@H]2O)[C@@]2(C)C[C@@H](C)C(=NC(C)=O)[C@H](C)C(OC/C=C/CO2)[C@]1(C)O | 49619 (erythromycin-susceptible) | 0.25 µg/mL |

Repeating the final 2 entries:

compound | strain | result
CC(=O)NC[C@H]1CN(c2ccc(-c3cc(C#N)cs3)c(F)c2)C(=O)O1 | UC9912 | ≤0.5 µg/mL
CC[C@H]1OC(=O)[C@H](C)C(=O)[C@H](C)[C@@H](O[C@@H]2O[C@H](C)C[C@H](N(C)C)[C@H]2O)[C@@]2(C)C[C@@H](C)C(=NC(C)=O)[C@H](C)C(OC/C=C/CO2)[C@]1(C)O | 49619 (erythromycin-susceptible) | 0.25 µg/mL